Assay results reported in US20240287139.
Numbering of substitutions follows the chain as printed.

B1: MtbGyrase with MtbGyrAP353L (protein)
chain 1: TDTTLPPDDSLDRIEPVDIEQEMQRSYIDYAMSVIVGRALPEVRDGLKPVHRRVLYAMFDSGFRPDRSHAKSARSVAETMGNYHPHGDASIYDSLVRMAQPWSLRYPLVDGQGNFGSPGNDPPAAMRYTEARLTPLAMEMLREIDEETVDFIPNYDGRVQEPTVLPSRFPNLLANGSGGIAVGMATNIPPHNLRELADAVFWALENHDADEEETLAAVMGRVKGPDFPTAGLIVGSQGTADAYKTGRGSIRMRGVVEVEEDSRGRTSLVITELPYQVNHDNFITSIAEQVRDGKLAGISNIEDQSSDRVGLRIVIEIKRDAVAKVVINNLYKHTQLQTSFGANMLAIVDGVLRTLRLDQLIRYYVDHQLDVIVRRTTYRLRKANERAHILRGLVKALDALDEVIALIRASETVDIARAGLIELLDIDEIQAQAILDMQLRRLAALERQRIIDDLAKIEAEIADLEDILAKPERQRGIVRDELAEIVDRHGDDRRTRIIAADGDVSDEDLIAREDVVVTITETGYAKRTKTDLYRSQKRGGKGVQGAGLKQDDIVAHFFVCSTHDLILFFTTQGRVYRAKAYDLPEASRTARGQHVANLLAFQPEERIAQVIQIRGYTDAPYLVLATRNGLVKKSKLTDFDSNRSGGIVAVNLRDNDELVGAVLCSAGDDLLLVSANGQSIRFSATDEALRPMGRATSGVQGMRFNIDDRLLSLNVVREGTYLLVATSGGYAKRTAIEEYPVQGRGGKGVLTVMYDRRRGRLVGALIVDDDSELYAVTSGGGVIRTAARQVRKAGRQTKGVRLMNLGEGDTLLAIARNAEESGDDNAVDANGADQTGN
chain 2: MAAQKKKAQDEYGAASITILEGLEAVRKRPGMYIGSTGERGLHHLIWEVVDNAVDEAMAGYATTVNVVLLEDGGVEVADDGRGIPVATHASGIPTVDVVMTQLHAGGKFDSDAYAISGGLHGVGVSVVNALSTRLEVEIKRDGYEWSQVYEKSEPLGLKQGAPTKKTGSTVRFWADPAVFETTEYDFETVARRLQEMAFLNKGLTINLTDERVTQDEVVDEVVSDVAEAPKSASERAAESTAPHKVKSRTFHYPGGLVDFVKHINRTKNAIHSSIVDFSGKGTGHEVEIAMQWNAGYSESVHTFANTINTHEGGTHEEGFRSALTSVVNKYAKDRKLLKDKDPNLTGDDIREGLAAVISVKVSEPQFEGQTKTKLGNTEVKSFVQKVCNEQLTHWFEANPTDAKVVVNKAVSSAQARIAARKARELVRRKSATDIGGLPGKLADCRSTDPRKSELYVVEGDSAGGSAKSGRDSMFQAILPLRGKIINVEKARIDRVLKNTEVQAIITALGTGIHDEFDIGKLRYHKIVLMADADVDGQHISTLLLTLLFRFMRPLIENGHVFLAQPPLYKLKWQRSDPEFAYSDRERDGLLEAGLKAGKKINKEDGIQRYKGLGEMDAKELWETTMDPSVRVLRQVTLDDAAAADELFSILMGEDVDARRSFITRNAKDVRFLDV
B2: MtbGyrase with MtbGyrAA32V (protein)
chain 1: B1 chain 1 with A31V, L352P
chain 2: B1 chain 2

Target: the compound of Formula IV

Protein | resistance to compound-induced cleavage
B1 | showed relatively strong resistance against the compound of Formula IV
B2 | showed relatively strong resistance against the compound of Formula IV
